Settings: two analytically confirmed cases of MT-45 intoxication

C1CCC(N2CCNCC2)CC1
metabolite detected in human urine samples: detected

— publication PMC6002428, “Chemical synthesis, characterisation and in vitro and in vivo metabolism of the synthetic opioid MT-45 and its newly identified fluorinated analogue 2F-MT-45 with metabolite confirmation in urine samples from known drug users” (2018)
